Measured values as given in EP4233917A1 (Universitat Pompeu Fabra, priority 2022, dated 2023).

Experiment: general procedure: Fmoc solid-phase peptide synthesis
Settings: whole synthesis; for isolated yield: scale 50 µM

Substance	final LC-MS purity	isolated yield
PEPTIDE1{S.G.T.Q.E.E.Y.K.[am]}|PEPTIDE2{[MP17]}$PEPTIDE1,PEPTIDE2,8:R3-1:R2$$$V2.0	97.6%	27.7%
PEPTIDE1{S.G.T.Q.E.E.Y.K.[am]}|PEPTIDE2{[PP17]}$PEPTIDE1,PEPTIDE2,8:R3-1:R2$$$V2.0	91.1%	14.3%
PEPTIDE1{V.Q.Q.L.T.K.R.F.S.L.K.[am]}|PEPTIDE2{[PP13]}$PEPTIDE1,PEPTIDE2,11:R3-1:R2$$$V2.0	92.4%	14.2%
PEPTIDE1{[PP17].S.G.T.Q.E.E.Y.[am]}$$$$V2.0	92%	8%
SGTQEEY-NH2	94.85%	28.8%
VQQLTKRFSLK-NH2	98.7%	15.1%

HELM strings list residues between dots; [ac] is acetyl, [am] amide, other brackets name non-standard units.
